Measured values reported in patent US8012982B2, “Modulators of HCV replication” (priority 2004, dated 2011).

What was measured:
Assay type in all cases: cell-based
pHCVNeo17.m17 replicon = conditions: replicon pHCVNeo17.m17: E1202G
pHCVNeo17.m31 replicon = conditions: replicon pHCVNeo17.m31: A2064V
pHCVNeo17.m43 replicon = conditions: replicon pHCVNeo17.m43: E1202G, A2064V
pHCVNeo17.m45 replicon = conditions: replicon pHCVNeo17.m45: E1202G, H2057R
pHCVNeo17.m48 replicon = conditions: replicon pHCVNeo17.m48: E1202G, H2057R, A2064V
[1] = tested on: adapted replicons carrying A2064V, Y2065H or R2129W; conditions: transient transfection

## CC(C)(C)OC(=O)N1CCN(c2ccc(C(=O)Nc3ccc(O)cc3)cc2)CC1 [Example 101, tert-butyl 4-(4-{[(4-hydroxyphenyl)amino]carbonyl}phenyl)piperazine-1-carboxylate]
pHCVNeo17.m17 replicon
  Cmpd Ib IC50 (μM): activation
pHCVNeo17.m31 replicon
  Cmpd Ib IC50 (μM): No effect
pHCVNeo17.m43 replicon
  Cmpd Ib IC50 (μM): No effect
pHCVNeo17.m45 replicon
  Cmpd Ib IC50 (μM): activation
pHCVNeo17.m48 replicon
  Cmpd Ib IC50 (μM): No effect
[1]
  Resistance of adapted replicons carrying A2064V, Y2065H or R2129W: clearly resistant
